Experimental data from patent EP1785721A1, “Microbial, viral and mammalian susceptibility to agents that affect cell growth and metabolism, and mode of action of compounds” (Stratos Bio Ltd., priority 2005, dated 2007).

Assay: Activity (international units) of the antibiotics used

Compound `NC[C@@H]1O[C@H](O[C@H]2[C@@H](O)[C@H](O[C@@H]3[C@@H](O)[C@H](N)C[C@H](N)[C@H]3O[C@H]3O[C@H](CN)[C@@H](O)[C@H](O)[C@H]3N)O[C@@H]2CO)[C@H](N)[C@@H](O)[C@@H]1O.O=S(=O)(O)O` [Neomycin sulphate] has an activity of 699 iU/ml.
